Data: patent US9555076B2, “Neuregulin based methods and compositions for treating cardiovascular diseases” (Zensun (Shanghai) Science & Technology, Co., Ltd., priority 2002, dated 2017)

System: acute myocardial injury caused by viral (Coxsackie B3) infection in mice
Assay: Myocardial pathologic score, mice infected with Coxsackie B3 virus
Assay type: in vivo, BALB/C mice
Design: key: 0-4 score: 0 = 0%, 1 = 25%, 2 = 50%, 3 = 75%, 4 = 100% lesion area
Settings: listed as Recombinant Human Neuregulin-1 βS177-Q237 for Injection
Procedure: The survived mice were killed through dislocating the cervical spine, aseptic thoracotomy was performed and the heart extirpated, heart weight measured and put the myocardium into formaldehyde for fixation, embedded in paraffin, consecutive section made and pathologic examination performed, observed inflammatory cells infiltration of the myocardium, degeneration and necrosis. Based on the Principle of New Drug Evaluation Guideline, pathologic scoring criteria was defined as follow: • Score 0: lesion area accounting for 0%; • Score 1: lesion area accounting for 25%; • Score 2: lesion area accounting for 50%; • Score 3: lesion area accounting for 75%; • Score 4: lesion area accounting for 100%; • Scoring could be performed between score 1 and score 2 or between score 2 and score 3, e.g. when lesion area was 80% was scored as score 3.2, 7.3.3.4 Observation On Survival Of Mice

B1: rhNRG-1 β: Recombinant human neuregulin fragment of 61 amino acid (SEQ ID NO:4), 3 disulfide bonds, expressed in E. coli (protein, listed as Homo sapiens)
chain: SHLVKCAEKEKTFCVNGGECFMVKDLSNPSRYLCKCPNEFTGDRCQNYVMASFYKAEELYQ
modifications: disulfide (positions not given here)
7.5 μg/kg iv qd × 5, (I)
  Pathologic score Mean ± SD: 1.5
15 μg/kg iv qd × 5, (I)
  Pathologic score Mean ± SD: 0.7
30 μg/kg iv qd × 5, (I)
  Pathologic score Mean ± SD: 0.56
